PubChem BioAssay AID624173 (National Center for Advancing Translational Sciences (NCATS), 2012)
“And” between values parts separate entries of the source, which are not always exact repeats. Equal entries are not always repeated. The list shows a part of the results, in another mix than the full data. The source made the active and inactive calls. Calls come from the whole dose curve; as a rule, active = well fitted inhibition curve with a large enough effect; inconclusive = small, poorly fitted or top-dose-only effect; inactive = flat fitted curve, though single readings scatter.

The compounds below were run against pyruvate kinase (Trypanosoma brucei) (UniProt Q57TT1) (assay: qHTS of Trypanosoma Brucei Inhibitors). Conditions: TbPYK enzyme, Kinase-Glo Plus ATP luminescence, 45 min; at 76.8 µM (top of the series) unless noted.
% is set by controls: 0 for no effect and ±100 for the full control effect.
Note: nearly all actives have a fitted effect of over 50% in size.

| SMILES | activity, negative = inhibition |
| --- | --- |
| CC(=O)Nc1ccc([As](=O)(O)O)cc1 | inactive: 0.536% |
| CN(C)P(=O)(N(C)C)n1c(Nc2ccccc2)nnc1-c1ccccc1 | inactive: 6.95% |
| O=P(Nc1nc2ccc(Cl)cc2s1)(c1ccccc1)c1ccccc1 | inactive: 0.548% |
| O=[N+]([O-])c1cccc(NC2=NCC(CBr)S2)c1 (stereo unspecified) | inactive: -1.27% |
| COC(=O)C1(C)COP(=O)(Nc2ccccc2)OC1 (stereo unspecified) | inactive: -18.9% |
| O=C(O)CNc1ccc([As](=O)(O)O)cc1 | inactive: -7.26% |
| CC(C)(C)C(=O)NC(Sc1ccncn1)C(Cl)(Cl)Cl (stereo unspecified) | inactive: -15.3% |
| O=[N+]([O-])c1ncn(CCn2ncnc2[N+](=O)[O-])n1 | inactive: -0.319% |
| O=C(Nc1cc([As](=O)(O)O)ccc1O)c1ccccc1 | inactive: -3.96% |
| O=P1(N(CCCl)CCCl)OCCCS1 (stereo unspecified) | inactive: -3.01% |
| CN(C)C(=O)OCCc1n(C)cc[n+]1C | inactive: 0.0792% |
| CC(C)=N/N=C(\N)N[N+](=O)[O-] | inactive: -2.07% |
| CC(C)c1nc(Nc2ccccc2)n(P(=O)(N(C)C)N(C)C)n1 | inactive: 1.03% |
| CC1CCN(C(=O)Oc2c(Cl)cc(Cl)c3cccnc23)CC1 | inactive: -6.31% |
| Nc1ccc([As](=O)(O)c2ccc(N)cc2)cc1 | inactive: 0.496% |
| CCN(/C(=N/P(=O)(N1CCOCC1)N1CCOCC1)N1CCOCC1)c1ccc(OC)cc1 | inactive: -0.223% |
| O=[N+]([O-])c1cccc2n[nH]nc12 | inactive: -1.06% |
| CC(=O)N1C2C3N(C(C)=O)C1C1N(C(C)=O)C(C(N1C(C)=O)N3C(C)=O)N2C(C)=O | inactive: 7.6% |
| CCc1nc2c(n1)c1c(non1O)c1c2no[n+]1[O-] | inactive: -0.987% |
| O=[N+]([O-])c1cc([N+](=O)[O-])c(CCNc2ccccc2)c([N+](=O)[O-])c1 | inactive: -4.88% |
| Cc1ccc(NP(=O)(Oc2ccccc2)Oc2ccccc2)nc1 | inactive: 6.54% |
| COc1ccc(C2=NCC(CBr)S2)cc1 (stereo unspecified) | inactive: 2.49% |

| SMILES | activity, negative = inhibition |
| --- | --- |
| c1nnnn1CCn1cnnn1 | inactive: 0.0258% |
| CC(C)C(=O)NC(Sc1ccccc1)C(Cl)(Cl)Cl (stereo unspecified) | inactive: 2.37% |
| O=P(Nc1nccs1)(c1ccccc1)c1ccccc1 | inactive: 10.4% |
| Nc1ccc([As](=O)(O)c2ccc([N+](=O)[O-])cc2)cc1 | inactive: -4.04% |
| C(Cc1nn[nH]n1)Cc1nn[nH]n1 | inactive: -2.37% |
| O=C(OC1CN2CCC1CC2)c1cccc(Cl)c1 (stereo unspecified) | inactive: 4.3% |
| O=[N+]([O-])c1ccc(O)c(/C=N/Nc2ccc([N+](=O)[O-])cc2[N+](=O)[O-])c1 | inactive: 2.39% |
| CC(=O)NC(SC(=S)N(C)C)C(Cl)(Cl)Cl (stereo unspecified) | inactive: -13.9% |
| O=[N+]([O-])c1ncn(CCn2cnc([N+](=O)[O-])n2)n1 | inactive: 0.518% |
| O=[As](O)(c1ccccc1)c1ccc(O)cc1 | inactive: 4.72% |
| C[C@H]1OP(=O)(Oc2ccccc2)[C@H](O)[C@H](O)[C@H]1N=[N+]=[N-] (stereo partly specified) | inactive: -3.84% |
| O=P(Nc1nc2ccccc2s1)(c1ccccc1)c1ccccc1 | inactive: -9.13% |
| CN(C(=O)Cc1ccccc1)[C@H]1CC[C@@]2(CCCO2)C[C@@H]1N1CCCC1 | inactive: 5.33% |
| Cc1cc([N+](=O)[O-])cc([N+](=O)[O-])c1O | inactive: 5.16% [at 157 µM] |
| Nc1ccc(CCCCOc2ccccc2)cc1 | inactive: 5.3% |
| COc1ccc(N)c([N+](=O)[O-])c1[N+](=O)[O-] | inactive: 0.489% |
| O=P(Nc1ccccn1)(c1ccc(Br)cc1)c1ccc(Br)cc1 | inactive: -1.04% |
| CN(C)C1(CNC(=O)c2ccc(Cl)c(S(N)(=O)=O)c2)CCCCC1 | inactive: 0.842% |
| CN(C)C(=O)Oc1noc2ccccc12 | inactive: -19.3% |
| O=c1c2cc([N+](=O)[O-])ccc2[nH]c2c([N+](=O)[O-])cc([N+](=O)[O-])cc12 | inactive: 1.38% |
| Cc1ccccc1OP(=O)(Nc1ccccn1)Oc1ccccc1C | inactive: -18.4% |
| CC(NC(=O)COC(=O)C(O)(c1ccccc1)c1ccccc1)c1ccccc1 (stereo unspecified) | inactive: -7.97% |

| SMILES | activity, negative = inhibition |
| --- | --- |
| CC(=O)NC(SC(=S)N(CC(C)C)CC(C)C)C(Cl)(Cl)Cl (stereo unspecified) | inactive: -12.8% |
| Cc1ccc(OP(=O)(Nc2ccccn2)Oc2ccc(C)cc2)cc1 | inactive: 1.05% |
| COC(=O)c1cc2c(s1)N=C(c1ccccc1)N(C)P2(=O)N1CCOCC1 (stereo unspecified) | inactive: -5.65% |
| CCC(=O)N1C2C3N(C(=O)CC)C1C1N(C(=O)CC)C(C(N1C(=O)CC)N3C(=O)CC)N2C(=O)CC | inactive: -3.02% |
| O=C(OC1CN2CCC1CC2)c1ccccc1 (stereo unspecified) | inactive: 0% and inactive: -0.174% |
| O=P1(N(CCCl)CCCl)OCCC2CCCCN21 (stereo unspecified) | inactive: 2.98% |
| CCNC(=S)/N=C(\N)N[N+](=O)[O-] | inactive: 1.91% |
| O=C(NC1CCS(=O)(=O)C1)NP(=S)(Oc1ccccc1)Oc1ccccc1 (stereo unspecified) | inactive: -0.988% |
| Cc1ccc(NP(=O)(Oc2cccc(C)c2)Oc2cccc(C)c2)nc1 | inactive: 5.36% |
| c1ccc(-c2nn[nH]n2)c(-c2nn[nH]n2)c1 | inactive: -7.28% |
| CC(=O)Nc1ccc(Oc2c([N+](=O)[O-])cc([N+](=O)[O-])cc2[N+](=O)[O-])cc1 | inactive: -0.743% |
| CC(=O)Nc1ccc([As](=O)(O)O)c(O)c1 | inactive: -0.986% |
| COC(=O)C1(C)COP(=O)(NCc2ccccc2)OC1 (stereo unspecified) | inactive: -22.7% |
| N#C/C(=C\c1ccc(N(CCBr)CCBr)cc1)C(N)=O | inactive: -4.01% |
| CC(=O)c1ccc(N2CC2c2ccncc2)cc1 (stereo unspecified) | inactive: 1.45% |
| C[C@@H]1C=CCP(=O)(Oc2ccccc2)O1 (stereo partly specified) | inactive: 1.94% |
| C[C@H]1OP(=O)(Oc2ccccc2)C[C@@H]2O[C@@H]21 (stereo partly specified) | inactive: 1.73% |
| Cc1ccccc1CN(C)C(=O)COC(=O)C(O)(c1ccccc1)c1ccccc1 | inactive: 0.603% |
| CCc1cc(O)c([N+](=O)[O-])c(C)c1[N+](=O)[O-] | inactive: -0.457% |
| CC(C)(C)C(=O)NC(Sc1ccccc1)C(Cl)(Cl)Cl (stereo unspecified) | inactive: -1.12% |
| CCOc1ccc(C2=NCC(CBr)S2)cc1 (stereo unspecified) | inactive: 2.21% |
| O=P1(Nc2nc3ccc(Cl)cc3s2)COc2ccccc2O1 (stereo unspecified) | inactive: 0.542% |
